Results on 1 substance are retold here after patent US6605308B2, “Pathogen management system” (Tomoco2 Equipment Company, priority 2001, dated 2003).

The subject of experiment [1] is E-Coli. As to the kind of experiment: E-Coli testing at immersion chiller, plant test at Dallas, Tex. The conditions noted are these: baseline.
Experiment [2] has as its system E-Coli. The experiment can be described thus: E-Coli testing at chiller system, Natchitoches, La.

chlorine: the E-Coli detection rate with E-Coli [1] (February) came to 45%; in the experiment on E-Coli [1] (January) it was 50%. The “samples with E-Coli detected” value in the experiment with E-Coli [1] (February, of 240 samples) is reported as 110 samples; in the experiment on E-Coli [1] (January, of 264 samples), 133 samples. In addition, the “samples over 10 cfu/ml” value in the experiment with E-Coli [2] (June baseline, 238 samples) is 66%; in the experiment with E-Coli [2] (May 2001 baseline, 258 samples) it was 55%. The “samples over 100 cfu/ml” value in the experiment on E-Coli [2] (June baseline, 238 samples) came to 13%; in the experiment on E-Coli [2] (May 2001 baseline, 258 samples), 7%.
